Test results taken from patent US20230381142A1, “ANTILEISHMANIAL COMPOUNDS, COMPOSITIONS AND USE THEREOF” (TRUSTEES OF BOSTON UNIVERSITY, priority 2022, published 2023).

These compounds were tested on L. donovani intracellular amastigotes infecting THP-1 macrophages (assay: GSK intramacrophage L. donovani assay (LD AMMAC, inMac; Assay Conditions C)). Settings: (LD MAC EC50)/(LD AMMAC EC50).
Assay type: cell-based, Leishmania donovani
Protocol: Assay Conditions C: The intramacrophage Leishmania donovani activity assay was performed as described in Antimicrob Agents Chemother (2013) 57(7):2913-22.
The intramacrophage Leishmania donovani activity assay (LD AMMAC) at GlaxoSmithKline was performed as described.
Given the literature precedents described above and the apparent narrow tolerance for R^3 substitutions observed in the primary screen compounds, a thorough and methodical assessment was undertaken of tolerated groups at the three points of diversity (R^1/R^2/R^3) for the core. At this stage of the project, all analogues were assessed using a battery of assays performed in-house at GlaxoSmithKline. For antileishmanial activity, GSK's inMac assay was utilized. This assay provides two readouts of compound potency: average number of intracellular amastigotes per infected cell (AMMAC) EC50, percentage of infected cells per well (INFCELL) EC50, as well as a toxicity output derived from the number of host cells (MAC EC50). In addition, compounds were assessed for toxicity against HepG2 cells (HEPG2 EC50). Here, AMMAC EC50 values were focused on for relative potency assessments. […] It should be noted that for all compounds assessed in this project, the measured toxicity against THP-1 macrophages either equaled or exceeded that of HepG2 hepatocytes, therefore the MAC SI is used here as the more conservative estimate of therapeutic index.

SMILES	SI MAC
COC1CCC(N2C(=O)c3[nH]nc(CC(C)C)c3C2c2ccc(F)cc2)CC1 (stereo not drawn) [Compound 36]	>2.0
COc1ccc(N2C(=O)c3[nH]nc(CC(C)C)c3C2c2ccccc2F)cc1 (stereo not drawn) [Compound 54]	9.9
COc1ccc(N2C(=O)c3[nH]nc(CC(C)C)c3C2c2ccc(Br)cc2)cc1 (stereo not drawn) [Compound 48]	2.5
COc1ccc(N2C(=O)c3[nH]nc(CC(C)C)c3C2c2ccc(C(F)(F)F)cc2)cc1 (stereo not drawn) [Compound 49]	2.0
CC(C)Cc1n[nH]c2c1C(c1ccc(F)cc1)N(c1ccc(N(C)C)cc1)C2=O (stereo not drawn) [Compound 21, 5-(4-(dimethylamino)phenyl)-4-(4-fluorophenyl)-3-isobutyl-4,5-dihydropyrrolo[3,4-c]pyrazol-6(1H)-one]	39.8
Cc1ccc(CN2C(=O)c3[nH]nc(CC(C)C)c3C2c2ccc(F)cc2)o1 (stereo not drawn) [Compound 35]	>2.5
COc1ccc(N2C(=O)c3[nH]nc(CC(C)C)c3C2c2ccncc2)cc1 (stereo not drawn) [Compound S6]	1.0
COc1ccc(N2C(=O)c3[nH]nc(CC(C)(C)C)c3C2c2ccc(F)cc2)cc1 (stereo not drawn) [Compound 10]	10.0
COc1ccc(N2C(=O)c3[nH]nc(CC(C)C)c3C2c2ccccc2OC)cc1 (stereo not drawn) [Compound 57, 3-isobutyl-4-(2-methoxyphenyl)-5-(4-methoxyphenyl)-4,5-dihydropyrrolo[3,4-c]pyrazol-6(1H)-one]	50.2
CC(C)Cc1n[nH]c2c1C(c1ccc(F)cc1)N(c1ccc(F)cc1)C2=O (stereo not drawn) [Compound 23]	4.0
CC(C)Cc1n[nH]c2c1C(c1ccc(F)cc1)N(c1ccccn1)C2=O (stereo not drawn) [Compound 33]	>2.5
COc1ccc(N2C(=O)c3[nH]nc(CC(C)C)c3C2c2ccc(F)cc2F)cc1 (stereo not drawn) [Compound 63]	12.6
COc1ccc(N2C(=O)c3[nH]nc(CC(C)C)c3C2c2cc(F)nc(F)c2)cc1 (stereo not drawn) [Compound S14]	1.0
COc1ccc(N2C(=O)c3[nH]nc(-c4ccc5c(c4)CCC5)c3C2c2ccc(F)cc2)cc1 (stereo not drawn) [Compound 16]	1.6
COc1ccc(N2C(=O)c3[nH]nc(CC(C)C)c3C2C2CCCC2)cc1 (stereo not drawn) [Compound 53]	1.6
COc1ccc(N2C(=O)c3[nH]nc(CC(C)C)c3C2c2cccc(OC)c2)cc1 (stereo not drawn) [Compound 61]	5.0
COc1ccc(N2C(=O)c3[nH]nc(CC(C)C)c3C2c2nccs2)cc1 (stereo not drawn) [Compound S5]	>2.5
C=C(C)CCCc1n[nH]c2c1C(c1ccc(F)cc1)N(c1ccc(OC)cc1)C2=O (stereo not drawn) [Compound 14]	3.2
C=C(C)CCc1n[nH]c2c1C(c1ccc(F)cc1)N(c1ccc(OC)cc1)C2=O (stereo not drawn) [Compound 13]	3.2

Same assay, conditions: THP-1 CC50 / L. donovani EC50 (THP-1)

SMILES	SI Host cell potency/L. donovani potency
CC(C)Cc1n[nH]c2c1C(c1c(Cl)cccc1Cl)N(c1ccc(N(C)C)cc1)C2=O (stereo not drawn) [CMLD011553]	5.0
COc1ccc(N2C(=O)c3[nH]nc(CC(C)C)c3C2C2CCCCC2)cc1F (stereo not drawn) [CMLD011090]	10.0
CC(C)Cc1n[nH]c2c1C(c1ccc(F)cc1)N(c1ccc(N3CCCC3=O)cc1)C2=O (stereo not drawn) [CMLD011560]	5.0
CC(C)Cc1n[nH]c2c1C(C1CCCCC1)N(c1ccc(Br)cc1)C2=O (stereo not drawn) [CMLD011087]	1.3
CC(C)Cc1n[nH]c2c1C(c1ccccc1Cl)N(c1ccc(F)cc1)C2=O (stereo not drawn) [CMLD011078]	5.0

Same assay, conditions: rows whose L. donovani EC50 is in THP-1 cells (c)

SMILES	SI Host cell potency/L. donovani potency
COc1ccc(N2C(=O)c3[nH]nc(CC(C)C)c3C2C2CCCCC2)cn1 (stereo not drawn) [CMLD010903]	1.6
COc1cc(N2C(=O)c3[nH]nc(CC(C)C)c3C2c2ccccc2Cl)cc(OC)c1OC (stereo not drawn) [CMLD011116]	1.3
CCCn1nc(CC(C)C)c2c1C(=O)N(c1ccc(OC)cc1)C2c1ccc(F)cc1 (stereo not drawn) [CMLD010982]	5.0
COc1ccc(N2C(=O)c3[nH]nc(CC(C)C)c3C2c2ccccc2Br)cc1 (stereo not drawn) [CMLD010894]	50.2
CC(C)Cc1n[nH]c2c1C(c1ccccc1Br)N(CCN1CCCC1)C2=O (stereo not drawn) [BUCMD00798]	>1.6
CC(C)Cc1n[nH]c2c1C(c1cccc(C(F)(F)F)c1)N(c1ccc(F)cc1)C2=O (stereo not drawn) [CMLD011119]	10.0
CC(C)Cc1n[nH]c2c1C(c1ccc(F)cc1)N(c1ccc(-n3ccnc3)cc1)C2=O (stereo not drawn) [BUCMD00815]	>20
COc1ccc(N2C(=O)c3[nH]nc(CC4CCCCC4)c3C2c2ccc(F)cc2)cc1 (stereo not drawn) [BUCMD00812]	6.3
COc1ccc(CN2C(=O)c3[nH]nc(CC(C)C)c3C2c2ccc(F)cc2)cc1 (stereo not drawn) [CMLD011026]	>2.5
C=CCCc1n[nH]c2c1C(c1ccc(F)cc1)N(c1ccc(OC)cc1)C2=O (stereo not drawn) [CMLD011024]	2.0
CC(C)Cc1n[nH]c2c1C(c1ccc(F)cc1)N(c1ccc3[nH]cnc3c1)C2=O (stereo not drawn) [CMLD011557]	<1
C=C(C)CCc1n[nH]c2c1C(c1ccc(F)cc1)N(c1ccc(OC)cc1)C2=O (stereo not drawn) [CMLD011025]	3.2
CC(C)Cc1n[nH]c2c1C(c1ccc(F)cc1)N(c1ccc(O)cc1)C2=O (stereo not drawn) [CMLD011029]	8.0
COc1ccc(N2C(=O)c3[nH]nc(CC(C)C)c3C2c2ccnnc2)cc1 (stereo not drawn) [BUCMD00801]	1.0
COc1ccc(N2C(=O)c3[nH]nc(CC(C)C)c3C2c2ccsc2)cc1 (stereo not drawn) [CMLD011104]	>7.9
CCOc1ccc(N2C(=O)c3[nH]nc(CC(C)C)c3C2c2ccc(F)cc2)cc1 (stereo not drawn) [CMLD010900]	12.5
C#CCn1nc(CC(C)C)c2c1C(=O)N(c1ccc(OC)cc1)C2c1ccc(F)cc1 (stereo not drawn) [CMLD010987]	12.6
CC(C)Cc1n[nH]c2c1C(c1ccccc1Br)N(c1ccc(F)cc1)C2=O (stereo not drawn) [CMLD011111]	4.0

SMILES	SI Host cell potency/L. donovani potency
COc1ccc(N2C(=O)c3[nH]nc(CC(C)C)c3C2c2nccs2)cc1 (stereo not drawn) [CMLD011075]	>2.5
COc1ccc(N2C(=O)c3[nH]nc(CC(C)C)c3C2c2cccc(C(F)(F)F)c2)cc1F (stereo not drawn) [CMLD011106]	4.0
CC(C)Cc1n[nH]c2c1C(C1CCCCC1)N(c1ccc3c(c1)OCO3)C2=O (stereo not drawn) [CMLD011043]	3.2
CC(C)Cc1n[nH]c2c1C(c1ccc(F)cc1)N(CC1CCN(C)C1)C2=O (stereo not drawn) [CMLD011129]	>1.0
COc1ccc(N2C(=O)c3[nH]nc(CC(C)C)c3C2c2ncccc2OC)cc1 (stereo not drawn) [CMLD011578]	<0.2
COc1ccc(N2C(=O)c3c(c(CC(C)C)nn3C)C2c2ccc(F)cc2)cc1 (stereo not drawn) [CMLD010989]	15.8
COc1ccccc1N1C(=O)c2[nH]nc(CC(C)C)c2C1c1ccccc1Br (stereo not drawn) [CMLD011112]	2.0
COc1ccc(N2C(=O)c3[nH]nc(CC(C)C)c3C2c2ccc(Br)cc2)cc1 (stereo not drawn) [CMLD010889]	2.5
CC(C)Cc1n[nH]c2c1C(c1ccccc1Cl)N(c1ccc(-n3ccnc3)cc1)C2=O (stereo not drawn) [CMLD010998]	7.9
CC(C)Cc1n[nH]c2c1C(c1cccc(C(F)(F)F)c1)N(c1ccc(C(C)(C)C)cc1)C2=O (stereo not drawn) [CMLD011122]	1.6
COc1ccc(N2C(=O)c3[nH]nc(CC(C)C)c3C2c2cccc(C(F)(F)F)c2)cn1 (stereo not drawn) [CMLD010898]	10.0
COc1ccc(N2C(=O)c3[nH]nc(CC(C)C)c3C2c2ccc(F)cc2F)cc1 (stereo not drawn) [CMLD011079]	12.6
CC(C)Cc1n[nH]c2c1C(c1ccc(F)cc1)N(c1ccc3[nH]c(O)nc3c1)C2=O (stereo not drawn) [CMLD011556]	<1
CC(C)Cc1n[nH]c2c1[C@H](c1ccc(F)cc1)N(c1ccc3ncnn3c1)C2=O [CMLD010993]	2.5
COc1ccc(N2C(=O)c3[nH]nc(CC(C)C)c3C2c2ccc(F)c(F)c2)cc1 (stereo not drawn) [CMLD013640]	5.0
CC(C)Cc1n[nH]c2c1C(c1cccc(Cl)c1)N(c1ccc3c(c1)OCO3)C2=O (stereo not drawn) [CMLD011132]	4.0
COc1ccc(N2C(=O)c3[nH]nc(CC(C)C)c3C2c2ccc(F)cn2)cc1 (stereo not drawn) [CMLD011100]	>5.0
COc1ccc(N2C(=O)c3[nH]nc(CC(C)C)c3C2c2ccc(C(=O)O)cc2)cc1 (stereo not drawn) [CMLD011032]	1.0
